# Molecular target: BoNT/A Holotoxin (Clostridium botulinum, UniProt P0DPI0)
# By UniProt entry, the sequences of proteins in these tests, tags left out. Where a name states a change or a piece, a line headed by the entry shows the natural chain unless it says otherwise.
# UniProt P0DPI0: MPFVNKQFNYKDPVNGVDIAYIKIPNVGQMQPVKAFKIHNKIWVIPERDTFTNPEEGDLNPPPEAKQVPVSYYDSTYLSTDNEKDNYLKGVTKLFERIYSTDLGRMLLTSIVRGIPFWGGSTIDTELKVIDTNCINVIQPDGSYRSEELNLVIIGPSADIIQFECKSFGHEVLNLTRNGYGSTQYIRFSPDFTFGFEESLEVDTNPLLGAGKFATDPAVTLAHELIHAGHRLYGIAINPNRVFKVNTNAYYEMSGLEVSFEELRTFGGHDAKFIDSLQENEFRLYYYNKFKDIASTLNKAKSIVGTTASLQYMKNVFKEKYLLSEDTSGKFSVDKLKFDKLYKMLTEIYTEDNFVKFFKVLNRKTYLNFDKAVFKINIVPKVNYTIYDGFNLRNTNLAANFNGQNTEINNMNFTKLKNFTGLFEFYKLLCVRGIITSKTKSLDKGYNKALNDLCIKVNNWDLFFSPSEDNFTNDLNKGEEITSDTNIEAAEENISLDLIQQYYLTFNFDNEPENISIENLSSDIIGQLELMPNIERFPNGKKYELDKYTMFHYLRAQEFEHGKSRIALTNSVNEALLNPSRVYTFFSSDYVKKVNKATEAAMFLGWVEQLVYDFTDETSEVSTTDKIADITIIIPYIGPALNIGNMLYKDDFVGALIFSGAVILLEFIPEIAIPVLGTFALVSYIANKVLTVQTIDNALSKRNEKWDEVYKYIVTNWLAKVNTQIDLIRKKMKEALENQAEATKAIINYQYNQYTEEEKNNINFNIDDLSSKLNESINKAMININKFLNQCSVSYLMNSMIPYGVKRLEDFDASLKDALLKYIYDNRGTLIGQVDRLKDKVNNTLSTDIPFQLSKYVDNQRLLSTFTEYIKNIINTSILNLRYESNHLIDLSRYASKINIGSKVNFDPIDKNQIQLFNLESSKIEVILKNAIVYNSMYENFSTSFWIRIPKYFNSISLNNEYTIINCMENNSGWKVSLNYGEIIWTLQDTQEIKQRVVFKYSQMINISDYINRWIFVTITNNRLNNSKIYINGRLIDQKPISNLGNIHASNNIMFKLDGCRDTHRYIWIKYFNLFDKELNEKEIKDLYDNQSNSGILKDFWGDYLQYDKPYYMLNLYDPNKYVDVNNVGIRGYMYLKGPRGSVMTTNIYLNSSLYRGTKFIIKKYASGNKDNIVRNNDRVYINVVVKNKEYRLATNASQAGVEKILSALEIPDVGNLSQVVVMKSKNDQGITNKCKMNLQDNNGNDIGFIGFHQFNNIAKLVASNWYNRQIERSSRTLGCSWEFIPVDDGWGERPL
# Assay: BoNT/A Holotoxin detection assay with TCEP, FilterMax F5
# Type: biochemical
# Conditions: 1 μM substrate, 5 ng Holotoxin
substance,measurement,setting,value
MDENLEQVSGIIGNLRHMALDMGNEIDTQNRQIDRIMEKADSN(KDabcyl)TRIDEANQRATKML(K5Fam),detection of BoNT/A Holotoxin without TCEP,no TCEP,unable to detect BoNT/A Holotoxin
same,detection of BoNT/A Holotoxin with TCEP,varying concentrations of TCEP,detection of 5.0 ng BoNT A Holotoxin Complex

# Reference: patent publication US9284595B2 (priority 2012, dated 2016)
